Experimental findings from patent US11168092B2 (priority 2019, dated 2021) are described below.

One may read the IC50 as the concentration needed to halve the response being measured.

One assay relates to lung cancer cells (A549). The assay can be described thus: SRB bioassay, cytotoxicity on lung cancer cells. Set-up: unit not given here. It is filed as cell-based. As to conditions: 72 hours.
For assay [1], the system named is lung cancer cells (A549), ovarian cancer cells (SK-OV-3), skin cancer cells (SK-MEL-2), and colorectal cancer cells (HCT15). As to conditions: read-out: IC50 value, over lung.
Assay [2] deals with colorectal cancer cells (HCT15). The assay is described as follows: SRB bioassay, cytotoxicity on colorectal cancer cells. It is filed as cell-based. Set-up: Anticancer activity (value at given concentration): unit not given here. Conditions: for Anticancer activity (value at given concentration): 72 hours.
For assay [3], the system named is skin cancer cells (SK-MEL-2). The assay can be described thus: SRB bioassay, cytotoxicity on skin cancer cells. It is filed as cell-based. Set-up: unit not given here. Conditions: 72 hours.
Assay [4] deals with ovarian cancer cells (SK-OV-3). The assay is described as follows: SRB bioassay, cytotoxicity on ovarian cancer cells. As to conditions: read-out: IC50 value. Format: cell-based.
Setting [5] is: A549, concentration 0.0001 (mM).
[6] abbreviates: HCT15, concentration 0.0001 (mM).
Setting [7] is: HCT15, concentration 0.001 (mM).
Where [8] appears, read: SK-MEL-2, concentration 0.0001 (mM).
[9] abbreviates: SK-MEL-2, concentration 0.001 (mM).
The mark [10] stands for this setting: SK-MEL-2, concentration 0.01 (mM).
[11] abbreviates: SK-MEL-2, concentration 0.1 (mM).
The mark [12] stands for this setting: SK-MEL-2, concentration 1.0 (mM).
Where [13] appears, read: SK-MEL-2, concentration 10.0 (mM).

Bounds are passed on as bounds.

For “(2Z,4E)-(2R,2′S,4R,5S,5aR,9aR)-5a-((((E)-5-hydroxy-3-methylpent-2-enoyl)oxy)methyl)-5,8-dimethyl-2,3,4,5,5a,6,7,9a-octahydrospiro[2,5-methanobenzo[b]oxepine-10,2′-oxiran]-4-yl-7-hydroxy-6-(2-(5-oxo-2,5-dihydrofuran-3-yl)ethoxy)octa-2,4-dienoate”, the “Anticancer activity (value at given concentration)” value (from here on “Anticancer activity”) in the assay on lung cancer cells (A549) (setting [5]) is listed as 91.20; in the assay on lung cancer cells (A549) (A549, concentration 0.001 (mM)), 86.40; in the assay with lung cancer cells (A549) (A549, concentration 0.01 (mM)), 49.33; in the assay with lung cancer cells (A549) (A549, concentration 0.1 (mM)), −11.78; in the assay on lung cancer cells (A549) (A549, concentration 1.0 (mM)) it was −32.54; with lung cancer cells (A549) (A549, concentration 10.0 (mM)) it was −64.23. For the same molecule, the IC50 in assay [1] is below 0.07 µM.

For `CC1=C[C@H]2O[C@@H]3C[C@@H](OC(=O)/C=C\C=C\C(OCCC4=CC(=O)OC4)C(C)O)[C@](C)([C@@]2(CO)CC1)[C@]31CO1` (stereo partly drawn), the “Anticancer activity” value is 103.20 in assay [2] (setting [6]); 103.56 in assay [2] (setting [7]); 105.34 in assay [2] (HCT15, concentration 0.01 (mM)); 105.40 in assay [2] (HCT15, concentration 0.1 (mM)); 102.31 in assay [2] (HCT15, concentration 1.0 (mM)); 83.30 in assay [2] (HCT15, concentration 10.0 (mM)). Further, the “Anticancer activity” value in the assay with lung cancer cells (A549) (setting [5]) worked out at 96.62; in the assay with lung cancer cells (A549) (A549, concentration 0.001 (mM)), 101.48; with lung cancer cells (A549) (A549, concentration 0.01 (mM)), 100.72; with lung cancer cells (A549) (A549, concentration 0.1 (mM)) it was 108.40; in the assay on lung cancer cells (A549) (A549, concentration 1.0 (mM)), 101.96; in the assay with lung cancer cells (A549) (A549, concentration 10.0 (mM)) it was 103.02. For the same molecule, the “Anticancer activity” value in assay [3] (setting [8]) is on record as 100.12; in assay [3] (setting [9]), 106.18; in assay [3] (setting [10]), 107.91; in assay [3] (setting [11]) it was 101.40; in assay [3] (setting [12]) it was 105.53; in assay [3] (setting [13]) it was 106.64.

As for `CC1=C[C@H]2O[C@@H]3C[C@H]4OC(=O)/C=C\C=C\[C@]5([C@H](C)O)OCC/C(=C\C(=O)OC[C@@]2(CC1)[C@]4(C)[C@]31CO1)[C@H]5O`, the “Anticancer activity” value with lung cancer cells (A549) (setting [5]) was 98.46; in the assay with lung cancer cells (A549) (A549, concentration 0.001 (mM)), 98.27; in the assay on lung cancer cells (A549) (A549, concentration 0.01 (mM)), 97.65; in the assay with lung cancer cells (A549) (A549, concentration 0.1 (mM)), 99.81; in the assay with lung cancer cells (A549) (A549, concentration 1.0 (mM)), 99.22; with lung cancer cells (A549) (A549, concentration 10.0 (mM)), 10.35.

Regarding `CC1=C[C@H]2O[C@@H]3C[C@@H](OC(=O)/C=C\C=C\C4([C@H](C)O)OCC/C(=C\C(=O)O)[C@@H]4O)[C@](C)([C@@]2(CO)CC1)[C@]31CO1` (stereo partly drawn), the “Anticancer activity” value in assay [2] (setting [6]) is 101.22; in assay [2] (setting [7]) it was 106.07; in assay [2] (HCT15, concentration 0.01 (mM)) it was 105.35; in assay [2] (HCT15, concentration 0.1 (mM)) it was 107.55; in assay [2] (HCT15, concentration 1.0 (mM)), 106.20; in assay [2] (HCT15, concentration 10.0 (mM)) it was 11.54. Also, the “Anticancer activity” value in the assay on lung cancer cells (A549) (setting [5]) is 95.36; in the assay with lung cancer cells (A549) (A549, concentration 0.001 (mM)), 99.30; in the assay with lung cancer cells (A549) (A549, concentration 0.01 (mM)), 94.81; in the assay on lung cancer cells (A549) (A549, concentration 0.1 (mM)) it was 91.26; in the assay with lung cancer cells (A549) (A549, concentration 1.0 (mM)) it was 100.21; with lung cancer cells (A549) (A549, concentration 10.0 (mM)) it was 68.29. For the same molecule, the “Anticancer activity” value in assay [3] (setting [8]) is listed as 99.03; in assay [3] (setting [9]), 104.42; in assay [3] (setting [10]) it was 97.76; in assay [3] (setting [11]) it was 102.99; in assay [3] (setting [12]), 101.04; in assay [3] (setting [13]) it was 87.55. The 50% inhibitory concentration (IC50) in assay [2] (read-out: IC50 value, colorectal cancer) was 3.74 µM; in assay [4] it was 4.52 µM.

With `COC(=O)/C=C/C=C/[C@@H](OCC/C(C)=C/C(=O)OC[C@]12CCC(C)=C[C@H]1O[C@@H]1C[C@@H](O)[C@@]2(C)[C@]12CO2)[C@@H](C)O`, the “Anticancer activity” value stood at 102.34 in assay [2] (setting [6]); 105.63 in assay [2] (setting [7]); 107.01 in assay [2] (HCT15, concentration 0.01 (mM)); 105.29 in assay [2] (HCT15, concentration 0.1 (mM)); 86.63 in assay [2] (HCT15, concentration 1.0 (mM)); 86.27 in assay [2] (HCT15, concentration 10.0 (mM)). For the same molecule, the “Anticancer activity” value in the assay with lung cancer cells (A549) (setting [5]) is given as 93.23; in the assay on lung cancer cells (A549) (A549, concentration 0.001 (mM)), 97.98; in the assay with lung cancer cells (A549) (A549, concentration 0.01 (mM)), 102.62; in the assay on lung cancer cells (A549) (A549, concentration 0.1 (mM)), 102.22; in the assay with lung cancer cells (A549) (A549, concentration 1.0 (mM)), 101.45; with lung cancer cells (A549) (A549, concentration 10.0 (mM)) it was 98.84. The “Anticancer activity” value in assay [3] (setting [8]) was 94.45; in assay [3] (setting [9]), 93.83; in assay [3] (setting [10]) it was 99.46; in assay [3] (setting [11]) it was 103.86; in assay [3] (setting [12]), 102.59; in assay [3] (setting [13]), 97.30.
